The compounds below were run on hepatitis B virus (assay: Anti-hepatitis B virus activity in transfected Hep G-2 (2.2.15) cells). Conditions: cytotoxicity IC50 / EC50.
Format: cell-based

| Structure (SMILES) | Selectivity Index IC50/EC50 |
| --- | --- |
| O=c1ccn([C@@H]2C[C@@H](O)[C@H](CO)O2)c(=O)[nH]1 [β-L-dU, β-L-2′-deoxyuridine] | >40 |
| O=c1[nH]cnc2c1ncn2[C@@H]1C[C@@H](O)[C@H](CO)O1 [β-L-dI, 2′-deoxy-β-L-inosine] | >200 |
| Cc1cn([C@@H]2C[C@@H](O)[C@H](CO)O2)c(=O)[nH]c1=O [β-L-dT, 2′-Deoxy-β-L-Thymidine] | >4000 |
| Nc1ncnc2c1ncn2[C@@H]1C[C@@H](O)[C@H](CO)O1 [β-L-dA, 2′-Deoxy-β-L-adenosine] | >2000 |
| Nc1ccn([C@@H]2C[C@@H](O)[C@H](CO)O2)c(=O)n1 [β-L-dC, 2′-Deoxy-β-L-cytidine] | >4000 |
